A mixed list of measured activities; the numbers were collected in NIAID ChemDB.

Common to all: whole-cell or culture tests; agent: Candida albicans

Inhibition is in % at the dose shown (toxicity tests: loss of growth or viability). Two numbers with a dash give a range or band. A number after MIC or MFC names an inhibition level or a share of isolates. An empty or dashed field is not shown. Zones are inhibition diameters on agar. Lines come from different laboratories, so protocols vary.

SMILES | method | tested at | read-out | changes | strain or isolate | result
CN1CCN(CCCOc2cc(O)c3c(=O)c(-c4ccc(O)cc4)coc3c2)CC1 | MTT |  | MIC |  |  | >50 µg/mL
COc1cc(C2CC(=O)c3c(O)cc(O)cc3O2)ccc1OCC=C(C)C | agar diffusion / agar | 100 µg/mL | zone |  | ATCC 14053 | 0 mm
C=C(c1ccccc1OCc1cccc(Cl)c1)n1ccnc1 |  |  | Geometric mean MIC |  |  | 33.1 µg/mL
COc1ccc2c(Cc3cccc(Br)c3)c3[n+](cc2c1OC)CCc1cc2c(cc1-3)OCO2.[Br-] | broth dilution |  | MIC80 | Fluconazole-resistant | Clinical isolate | 32 µg/mL
COC(=O)[C@]12CCC(C)(C)C=C1C1CCC3[C@@]4(C)CCC(=O)C(C)(C)C4CC[C@@]3(C)[C@]1(C)CC2 | broth dilution |  | MLC |  | ATCC 10231 | >200 µg/mL
CCC(C)CC(C)CCCCCCCCC(=O)NC1CC(O)CNC(=O)C2C(O)CCN2C(=O)C(C(O)CC(N)=O)NC(=O)C(C(O)Cc2ccc(OP(=O)([O-])[O-])cc2)NC(=O)C2CC(O)CN2C(=O)C(C(C)O)NC1=O.[Na+].[Na+] |  |  | MFC |  | MY1208 | 2 µg/mL
CCC(C)CC(C)CCCCCCCCC(=O)N[C@H]1C[C@@H](O)[C@H](NCCN)NC(=O)[C@@H]2[C@@H](O)CCN2C(=O)[C@H]([C@H](O)CCN)NC(=O)[C@H]([C@H](O)[C@@H](O)c2ccc(O)cc2)NC(=O)[C@@H]2C[C@@H](O)CN2C(=O)[C@H]([C@@H](C)O)NC1=O | resazurin |  | MIC |  | SC5314 | 0.5 µg/mL
S=C(N/N=C/c1cnc[nH]1)Nc1ccccc1 | broth dilution |  | MIC50 |  | ATCC 18804 | >1020 µM
CN(C/C=C/C#CC(C)(C)C)Cc1cccc2ccccc12 |  |  | MIC90 |  | CI_3 | 4 µg/mL
CC(C)(C)[C@](O)(COc1ccc(Cl)cc1)Cn1cncn1 |  |  | MLC90 |  |  | >0.08 µg/mL
Oc1ccc2c(c1)CCc1ccc(O)c(c1)Oc1ccc(cc1O)CCc1cccc(O)c1O2 | broth dilution |  | MIC80 |  | BWP17-DPP3-GFP | >64 µg/mL
O=c1oc2ccccc2c(O)c1C(c1c(O)c2ccccc2oc1=O)c1coc2ccccc2c1=O | agar diffusion / agar |  | MFC |  |  | 100 µg/mL
COc1ccc(CSC#N)cc1 | broth dilution |  | MFC |  |  | 5000 µg/mL
CCC(C)n1ncn(-c2ccc(N3CCN(c4ccc(OC[C@H]5CO[C@](Cn6cncn6)(c6ccc(Cl)cc6Cl)O5)cc4)CC3)cc2)c1=O | agar diffusion / agar | 10 µg/mL | inhibition |  | 75 strains | 71%
C[C@@H]([C@H]1CC[C@H](C)C(=O)C1)[C@H]1CC[C@]2(C)C3=C(CC[C@@]12C)[C@]1(C)CC[C@H](O)C(C)(C)[C@H]1CC3 | agar diffusion / agar | 0.25 µg/disc | zone |  | MTCC 183 | 10 mm
CCN(CC)N1C(=O)C(C(Sc2ccccc2)c2ccccc2)SC1=S | agar diffusion / agar | 100 mg/mL | zone |  | ATCC 2091 | 10–15 mm
Oc1cc2cc(c1O)Oc1ccc(cc1)CCc1ccc(O)c(O)c1Oc1cccc(c1)CC2 | broth dilution |  | MIC80 |  | BWP17-DPP3-GFP | >64 µg/mL
COc1cccc(C[N+]2(C)CCc3cc4c(cc3C2)OCO4)c1OC.[Br-] | broth dilution |  | MIC80 | Fluconazole-resistant | Clinical isolate | >64 µg/mL
C[C@@H]1[C@H](O)[C@@H](C)/C=C/C=C/C=C/C=C/C=C/C=C/C=C/[C@H](O[C@@H]2O[C@H](C)[C@@H](O)[C@H](N)[C@@H]2O)C[C@@H]2O[C@](O)(C[C@@H](O)C[C@@H](O)[C@H](O)CC[C@@H](O)C[C@@H](O)CC(=O)O[C@H]1C)C[C@H](O)[C@H]2C(=O)O | broth dilution |  | MIC100 |  | ATCC 40227 | >1024 µg/mL
c1ccc(-c2c(C(c3ccccc3)n3ccnc3)cnn2-c2ccccc2)cc1 |  |  | MBC |  |  | 100 µM
Clc1ccc(COC(Cn2ccnc2)c2ccc(Cl)cc2Cl)c(Cl)c1 |  |  | Geometric mean MIC |  | 11 isolates | 15.5 µg/mL
O=c1c(-c2ccc(O)cc2)coc2cc(OCCCBr)cc(O)c12 | MTT |  | MIC |  |  | >50 µg/mL
Cc1cc(C2CCCCC2)n(O)c(=O)c1 | agar diffusion / agar | 10 µg/mL | inhibition |  | 75 strains | 75%
CCC(C)CC(C)CCCCCCCCC(=O)N[C@H]1C[C@@H](O)[C@H](NCCN)NC(=O)[C@@H]2[C@@H](O)CCN2C(=O)[C@H]([C@H](O)CCN)NC(=O)[C@H]([C@H](O)[C@@H](O)c2ccc(O)cc2)NC(=O)[C@@H]2C[C@@H](O)CN2C(=O)[C@H]([C@@H](C)O)NC1=O |  |  | Geometric mean MIC |  |  | 0.32 µg/mL
CC(C)=CCOc1ccc(C2CC(=O)c3c(O)cc(O)cc3O2)cc1 | agar diffusion / agar | 100 µg/mL | zone |  | ATCC 14053 | 0 mm
O=C1NC(=S)S/C1=C\c1cccs1 | agar diffusion / agar | 100 mg/mL | zone |  | ATCC 2091 | 5–9 mm
Nc1[nH]c(=O)ncc1F | resazurin |  | MIC |  | SC5314 | 0.25 µg/mL
COc1ccc2c(Cc3ccccc3F)c3[n+](cc2c1OC)CCc1cc2c(cc1-3)OCO2.[Br-] | broth dilution |  | MIC80 | Fluconazole-resistant | Clinical isolate | 64 µg/mL
CCC(C)n1ncn(-c2ccc(N3CCN(c4ccc(OC[C@H]5CO[C@](Cn6cncn6)(c6ccc(Cl)cc6Cl)O5)cc4)CC3)cc2)c1=O |  |  | MIC |  | A28924 | 0.25 µg/mL
CCCCCCCCC/C=C/C(=O)O | XTT | 300 µM | inhibition |  | SC5314 | 90%
O=C(N/N=C/c1ccc(-n2ccnc2)cc1)c1ccccc1 | broth dilution |  | MIC50 |  | ATCC 18804 | >861.1 µM
O=c1c(-c2ccc(O)cc2)coc2cc(OCCN3CCCCC3)cc(O)c12 | MTT |  | MIC |  |  | >50 µg/mL
CC(C)=CCOc1ccc(C2CC(=O)c3ccc(O)cc3O2)cc1 | agar diffusion / agar | 100 µg/mL | zone |  | ATCC 10231 | 0 mm
COc1cccc(C[N+]2=C(c3ccc(F)cc3F)c3cc4c(cc3CC2)OCO4)c1OC.[Br-] | broth dilution |  | MIC80 | Fluconazole-resistant | Clinical isolate | >64 µg/mL
CC1(C)C=C2C3CCC4[C@@]5(C)CCC(=O)C(C)(C)C5CC[C@@]4(C)[C@]3(C)CC[C@@]2(C(=O)O)CC1 | broth dilution |  | MLC |  | ATCC 10231 | >200 µg/mL
COc1ccc(CCc2cc(OC)c(OC)c(OC)c2)cc1OC | broth dilution |  | MIC80 |  | BWP17-DPP3-GFP | >64 µg/mL
COc1cc(/C=C2\SC(N(C)C)=NC2=O)cc(OC)c1OC | broth dilution |  | MIC100 |  | ATCC 10231 | >250 µg/mL
CCCCCCCCOc1ccc(-c2ccc(C(=O)NC3CC(NCCN)CNC(=O)[C@@H]4[C@@H](O)[C@@H](C)CN4C(=O)[C@@H](CO)NC(=O)[C@H]([C@H](O)Cc4ccccc4)NC(=O)[C@@H]4C[C@@H](O)CN4C(=O)[C@H]([C@@H](C)O)NC3=O)cc2)cc1 | resazurin |  | MIC |  | SC5314 | 0.5 µg/mL
COc1ccccc1CN=C=S | broth dilution |  | MFC |  |  | 1250 µg/mL
Cc1ccc2occ(C(c3c(O)c4ccccc4oc3=O)c3c(O)c4ccccc4oc3=O)c(=O)c2c1 | agar diffusion / agar |  | MFC |  |  | 50 µg/mL
COc1ccc2c(c1OC)C[N+]1(Cc3ccc([N+](=O)[O-])cc3)CCc3cc4c(cc3C1C2)OCO4.[Br-] | broth dilution |  | MIC80 | Fluconazole-resistant | Clinical isolate | >64 µg/mL
COc1cccc(C=O)c1 | agar diffusion / agar |  | MIC90 |  | 10261 | 500–900 µg/mL
O=C(N/N=C\n1ccnc1)c1ccc([N+](=O)[O-])cc1 | broth dilution |  | MIC50 |  | ATCC 18804 | >964.4 µM
Clc1ccccc1C(c1ccccc1)(c1ccccc1)n1ccnc1 | agar diffusion / agar | 10 µg/mL | inhibition |  | 75 strains | 62%
CN(C)C1=NC(=O)/C(=C/c2ccc([N+](=O)[O-])cc2)S1 | broth dilution |  | MIC100 |  | ATCC 10231 | >250 µg/mL
C[C@H]1[C@H](O)[C@@H](C)/C=C/C=C/C=C/C=C/C=C/C=C/C=C/[C@H](O[C@@H]2O[C@H](C)[C@@H](O)[C@H](N)[C@@H]2O)C[C@@H]2O[C@](O)(C[C@@H](O)C[C@@H](O)CC[C@H](O)[C@@H](O)C[C@@H](O)CC(=O)O[C@H]1C)C[C@H](O)[C@H]2C(=O)O |  |  | MBC |  |  | 3.7 µM
C/C(=N\NC(=O)c1ccc(Cl)cc1)c1ccc(-n2ccnc2)cc1 | broth dilution |  | MIC50 |  | ATCC 18804 | >737.9 µM
OC(Cn1cncn1)(Cn1cncn1)c1ccc(F)cc1F | broth dilution |  | MIC |  | YL 345 | >512 µg/mL
CCO[C@@H]1C[C@@H]([C@H](C)[C@H]2CC[C@]3(C)C4=C(CC[C@@]23C)[C@]2(C)CC[C@H](O)C(C)(C)[C@H]2CC4)CC[C@@H]1C | agar diffusion / agar | 1 µg/disc | zone |  | MTCC 183 | 16 mm
C=C(Cl)/C=C/[C@H](O)CC(=C)C[C@H]1OC2[C@@H](O)[C@]3(O)C[C@@H](O)[C@H](C)[C@H](CCC/C=C\[C@@H]4C[C@@H](O)C[C@]5(C[C@H](OC)CC(CC(=O)[C@@H](C)[C@H](OC(C)=O)[C@@H](C)C(=C)C[C@@H]6C[C@@](C)(O)C[C@]7(C[C@H](OC(C)=O)CC(CC(=O)O[C@@H]([C@@H]1O)[C@H]2C)O7)O6)O5)O4)O3 |  |  | MFC |  | ATCC 60193 | 3.12 µg/mL
Oc1ccc2cc1Oc1ccc(cc1)CCc1ccc(O)c(c1)Oc1cccc(c1)CC2 | broth dilution |  | MIC80 |  | BWP17-DPP3-GFP | >64 µg/mL
C[C@@H]1C=C2C3CCC4[C@@]5(C)CC[C@@H](O)C(C)(C)C5CC[C@@]4(C)[C@]3(C)CC[C@@]2(C(=O)O)CC1 | broth dilution |  | MLC |  | ATCC 10231 | >200 µg/mL
COc1ccc2cc1Oc1ccc(cc1)CCc1ccc(OC)c(c1)Oc1ccc(cc1)CC2 | broth dilution |  | MIC80 |  | BWP17-DPP3-GFP | >64 µg/mL
CC(=O)N/N=C(\C)c1ccc(-n2ccnc2)cc1 | broth dilution |  | MIC50 |  | ATCC 18804 | >1030 µM
N#CSCc1ccccc1 | broth dilution |  | MFC |  |  | 1250 µg/mL
Clc1ccc(-n2ncc(C(c3ccccc3)n3ccnc3)c2-c2ccccc2Cl)c(Cl)c1 |  |  | MBC |  |  | 33.3 µM
CC1=[N+](Cc2ccccc2)CCc2cc3c(cc21)OCO3.[Br-] | broth dilution |  | MIC80 | Fluconazole-resistant | Clinical isolate | >64 µg/mL
C[C@H](Cc1ccc(O)c(O)c1)[C@@H](C)Cc1ccc(O)c(O)c1 | broth dilution |  | MIC80 |  | CCC 128-2000 | 250 µg/mL
CN(C)C1=NC(=O)/C(=C/c2ccccc2)S1 | broth dilution |  | MIC100 |  | ATCC 10231 | 250 µg/mL
Fc1ccc(C2=[N+](Cc3ccccc3)CCc3cc4c(cc32)OCO4)c(F)c1.[Br-] | broth dilution |  | MIC80 | Fluconazole-resistant | Clinical isolate | >64 µg/mL
NC(=S)N/N=C/c1ccc(-n2ccnc2)cc1 | broth dilution |  | MIC50 |  | ATCC 18804 | >510 µM

Repeating the final 5 entries:

SMILES	method	tested at	read-out	changes	strain or isolate	result
CC1=[N+](Cc2ccccc2)CCc2cc3c(cc21)OCO3.[Br-]	broth dilution		MIC80	Fluconazole-resistant	Clinical isolate	>64 µg/mL
C[C@H](Cc1ccc(O)c(O)c1)[C@@H](C)Cc1ccc(O)c(O)c1	broth dilution		MIC80		CCC 128-2000	250 µg/mL
CN(C)C1=NC(=O)/C(=C/c2ccccc2)S1	broth dilution		MIC100		ATCC 10231	250 µg/mL
Fc1ccc(C2=[N+](Cc3ccccc3)CCc3cc4c(cc32)OCO4)c(F)c1.[Br-]	broth dilution		MIC80	Fluconazole-resistant	Clinical isolate	>64 µg/mL
NC(=S)N/N=C/c1ccc(-n2ccnc2)cc1	broth dilution		MIC50		ATCC 18804	>510 µM